Measured values: patent US20250066456A1 (NOVAVAX, published 2025)

B1: 322.3 (antibody, V domains shown)
VH: RVQLQQSGPELVKPGASVTISCKASGYIFTSDYIHWVKQRPGQGPEWIGWIYPGNINTKYNEKFKGKATLTADKSSSTAYMQLSSLTSEDSAVYFCARDDGNLYYYAMDYWGQGTSVTVSS
VL: NIVLTQSPASLAVSLGQRATISCRASESVDSYGSSFMHWYQQKPGQPPKLLIYLASNLESGVPARFSGSGSRTDFTLTIDPVEADDAATYYCQQNNEDPRTFGGGTKLEIK
B2: 199.9 (antibody, V domains shown)
VH: LVQLQQPGAELVKPGASVKLSCKASGYTFTSYFMYWVRQRPGQGLEWIGEINPSNGGNDFNEKFKSKATLTVDKSSSTAYMQLSSLTSEDSAVYYCTRSGDYGYDGFAYWGQGTLVTVSA
VL: B1 VL with S31T, S34N, R100L, G104A, I110L
B3: 425.6 (antibody, V domains shown)
VH: VQLKQSGPSLVQPSQSLSITCTVSGFSLTSYGIHWVRQSPGKGLEWLGVIWRGGSTDYNAAFMSRLTITKDNSKSQVFFKMNSLQADDTAIYYCATHTEGDDVDYWGQGTSVTVSS
VL: QIVLTQSPAIMSVSPGEKVTMTCSASSTMSFMYWYQQKPGSSPRLLIYDTSNLASGVPVRFSGSGSGTSYSLTISRVEAEDAATYYCQQWNTYPLTFGAGTKLELKR
B4: 239.12 (antibody, V domains shown)
VH: EVKLEESGPVLVKPSQSLSLTCTVTGYSITSDYAWNWIRQFPGNKLEWMGYISNSAGTSYNPSLKSRISITRDTSKNQFFLQLNSVTTEDTATYYCASGGWSSYYAMDYWGQGTSVTVSS
VL: DIQMTQSPASLSASVGETVTITCGASENIYGALNWYQRKQGKSPQLLIYGATNLADGMSSRFSGSGSGRQYSLKISSLHPDDVATYYCQNVLSTPYTFGGGTKLEIKR
B5: 35.13 (antibody, V domains shown)
VH: QVQLQQSGAELGKPGASVKLSCRASGYTFTRYYIYWVKQRPGQGLEWIGEINPSNGDTHFNEKFKTKATLTVDKSSSSAHIHLTSLTSEDSAVYYCSIHAYSFDFWGQGTTLTVSS
VL: EIQMTQSPSSMSASLGDRITITCQATQDIVKNLNWYQQKPGKPPSFLIYHATELAKGVPSRFSGSGSGSDYSLTISNLESEDFADYYCLQFYDFPFTFGAGTKLELKR

Columns and labels:
[1] = target: BA.2.75.2 CoV S glycoprotein (recombinant); test: ELISA on coated rS
[2] = target: BQ.1 CoV S glycoprotein (recombinant); test: hACE2 receptor inhibition ELISA on coated rS; competitor hACE2-His
[3] = target: BA.2.75.2 CoV S glycoprotein (recombinant); test: as above
[4] = target: BA.2.75.2 CoV S glycoprotein (recombinant); test: as above; remark: listed apart in the source
[5] = target: BA.2.75.2 CoV S glycoprotein (recombinant); test: ELISA on coated rS; remark: listed apart in the source
[6] = target: Kappa B.1.617.1 CoV S glycoprotein (recombinant); test: hACE2 receptor inhibition ELISA on coated rS; competitor hACE2-His

Binder | EC50 [1] | IC50 [2] | IC50 [3] | IC50 [4] | EC50 [5] | IC50 [6]
B1 | 0.024 µg/mL | 0.656 µg/mL | 0.184 µg/mL |  |  | 
B2 |  |  |  | 0.648 µg/mL | 0.001 µg/mL | 
B3 |  | > 3 µg/mL | > 3 µg/mL |  |  | 0.043 µg/mL
B4 |  | > 3 µg/mL | > 3 µg/mL |  |  | 
B5 |  | > 3 µg/mL | > 3 µg/mL |  |  | 

Substitutions are numbered along the chain they refer to. Where two headings read alike, the source gives them in different places.
